Compound potency records, mixed from different reports. Data source: NIAID ChemDB in PubChem.

Common to all: growth or infection tests; agent: HIV-1; method: syncytia; measure: EC50

Blank or dashed fields: not listed here. Conditions beyond the fields shown may differ between rows. ECn is the concentration giving n% inhibition of infection, replication or growth.

| structure | strain or isolate | mutations | cell line | value |
|---|---|---|---|---|
| Cc1cc(C)c(S(=O)(=O)OCC2OC3OC4C(CO)OC(OC5C(CO)OC(OC6C(CO)OC(OC7C(CO)OC(OC8C(CO)OC(OC9C(C[n+]%10ccccc%10)OC(OC2C(O)C3O)C(O)C9O)C(O)C8O)C(O)C7O)C(O)C6O)C(O)C5O)C(O)C4O)c(C)c1 | LAV-1 | - | MOLT-4 | <42 µg/mL |
| Cc1ccc(C)c(C(C)S(=O)(=O)c2ccc(C)c[n+]2[O-])c1 | IIIB | - | C8166 | ≥4 µg/mL |
| Cc1occc1C(=S)Nc1ccc(Cl)c(OCC(=O)OC(C)(C)C)c1 | - | RT-L100I | CEM | 1.6 µM |
| CCc1c(Sc2cc(C)cc(C)c2)n(COCc2ccccc2)c(=O)[nH]c1=O | IIIB | RT-Y181C | CEM | 0.08 µM |
| Cc1ccc(C(C)S(=O)(=O)c2c(C)ccc[n+]2[O-])c(C)c1 | IIIB | RT-K103N | CEM | 50 µg/mL |
| CC(C)=CCOc1cc(NC(=S)c2ccoc2C)ccc1Cl | IIIB | RT-V179D | CEM | 0.017 µM |
| CCCCCCCCCCCCCCCC(=O)NCC1CC(OP(=O)(O)OCC2OC(n3cnc4c(N)ncnc43)C(OP(=O)(O)OCC3OC(n4cnc5c(N)ncnc54)C(O)C3O)C2O)C(n2cnc3c(N)ncnc32)O1 | IIIB | - | SupT1 + Sup-T1 | <100 µM |
| CCc1c(Cc2cc(C)cc(C)c2)n(COCCO)c(=O)[nH]c1=O | IIIB (TIBO 82150) (RT-L100I) | RT-L100I | CEM | 0.17 µM |
| CC1=C(C(=O)N(C)c2ccc(Cl)c(C(=O)OC(C)C)c2)SCCO1 | TSAO-resistant (RT E138K) | RT-E138K | CEM | >10 µg/mL |
| C=C(C)[C@@H]1CC[C@]2(C(=O)NCCCCCCCC(=O)N[C@@H](CC(C)C)[C@@H](O)CC(=O)O)CC[C@]3(C)[C@H](CC[C@@H]4[C@@]5(C)CC[C@H](O)C(C)(C)[C@@H]5CC[C@]43C)[C@@H]12 | LN7 (H91L) | - | HeLa P4 + HeLa | <10 µM |
| CC[C@H](/C=C/[C@@H](C)[C@H]1CCC2C3CC=C4CC(O[C@@H]5O[C@H](CO)[C@@H](O)[C@H](O)[C@H]5O)CC[C@]4(C)C3CC[C@@]21C)C(C)C | Tat/Rev-defective | - | 1A2 | 73.6 µg/mL |
| C#CCOc1cc(NC(=S)c2ccoc2C)ccc1Cl | - | RT-Y181C | CEM | 1.3 µM |
| C=C(C)[C@]1(O)C[C@@H](C)[C@@]2(O)[C@H]([C@H]1OC(=O)/C=C/C=C/CCCCC)[C@@H]1O[C@]1(CO)[C@@H](O)[C@]1(O)C(=O)C(C)=C[C@H]12 | - | - | C8166 | 0.02596 µM |
| CC(C)c1c(Sc2ccccc2)n(COCCO)c(=S)[nH]c1=O | IIIB (TIBO 82150) (RT-L100I) | RT-L100I | CEM | 1 µM |
| CN[C@@H]1[C@H](O[C@@H]2OC[C@@H](O)[C@H](O)[C@H]2O)[C@@H](O)[C@H](O[C@H]2c3cc(C)c(C(=O)N[C@H](C)C(=O)O)c(O)c3-c3c(cc4c(c3O)C(=O)c3cc(OC)cc(O)c3C4=O)[C@@H]2O)O[C@@H]1C | Mutant AH_1/#58 | - | CEM | 5.1 µM |
| CC(C)OC(=O)c1cc(NC(=S)c2ccco2)ccc1Cl | - | RT-V106A | CEM | 21 µM |
| COc1ccc(OC)c(CS(=O)c2cccc[n+]2[O-])c1 | IIIB | - | CEM | >100 µg/mL |
| O=[N+]([O-])c1ccc[n+]([O-])c1SCc1ccccc1 | IIIB | RT-L100I | CEM | 1.9 µg/mL |
| Cc1occc1C(=S)Nc1ccc(Cl)c(OC(=O)OC(C)C)c1 | - | RT-V106A | CEM | 9 µM |
| CCCCCCCCCCCCCCCC(=O)NCC1OC(n2cnc3c(N)ncnc32)C(OP(=O)(O)OCC2OC(n3cnc4c(N)ncnc43)C(OP(=O)(O)OCCOCn3cnc4c(N)ncnc43)C2O)C1O | IIIB | - | SupT1 + Sup-T1 | <100 µM |
| CCCCCCCCCC(=O)Oc1ccc(COP(=O)(OCc2ccc(OC(=O)CCCCCCCCC)cc2)OP(=O)([O-])OC[C@@H]2C=C[C@H](n3ccc(=O)[nH]c3=O)O2)cc1 | IIIB | - | CEM | 32 µM |
| CCCOC(=O)c1ccc(C)c(NC(=O)C2=C(C)OCCS2)c1 | TSAO-resistant (RT E138K) | RT-E138K | CEM | >10 µg/mL |
| Cn1cccc1C(=S)Nc1ccc(Cl)c(/C=N/OC(C)(C)C)c1 | - | RT-K103N | CEM | 0.476 µM |
| CSCCC(NC=O)C(=O)NC(CC(C)C)C(=O)NC(Cc1ccccc1)C(=O)Nc1ccn([C@H]2CS[C@@H](CO)O2)c(=O)n1 | - | - | MT-4 | 8 µM |
| Nc1nccc2c1ncn2[C@@H]1O[C@H](CO)[C@@H](O)[C@H]1O | MN | - | H9 | 0.001 µM |
| CCCCCCC(=O)Oc1ccc(COP(=O)(OCc2ccc(OC(=O)CCCCCC)cc2)OP(=O)([O-])OC[C@@H]2C=C[C@H](n3ccc(=O)[nH]c3=O)O2)cc1 | IIIB | - | CEM | 35 µM |
| COCCOC(=O)c1cc(NC(=O)C2=C(C)OCCS2)ccc1Cl | Nevirapine-resistant (RT V106A) | RT-V106A | CEM | >10 µg/mL |
| C/C=C/CSc1cc(NC(=S)c2ccsc2C)ccc1Cl | IIIB | - | CEM | 0.017 µM |
| CC(C)c1c(Cc2ccccc2)nc(SCC(=O)c2ccccc2)[nH]c1=O | IIIB | - | C8166 | 0.014 µM |
| CC(C)c1c(Sc2ccccc2)n(COCc2ccccc2)c(=O)[nH]c1=O | IIIB | RT-Y181I | CEM | 5 µM |
| COc1cc(OC[C@H]2CC[C@@H](COCc3ccccc3)O2)nc(N)n1 | IIIB | - | CEM | >10 µM |
| CC(C)=CCc1c(O[C@@H]2O[C@H](CO)[C@@H](O)[C@H](O)[C@H]2O)cc2oc(-c3ccc(O)c(O)c3)c(O)c(=O)c2c1O | MC99 deltaTAT/REV | - | 1A2 | 14 µg/mL |
| Nc1nc(N)nc(OC[C@H]2CC[C@@H](CO)O2)n1 | IIIB | - | CEM | >250 µM |
| CCCOC(=O)c1cc(NC(=O)C2=C(C)OCCS2)ccc1Cl | TIBO-resistant (RT L100I) | RT-L100I | CEM | 1.9 µg/mL |
| Nc1nc(N)nc(OC[C@H]2CC[C@@H](COCc3ccccc3)O2)n1 | IIIB | - | CEM | >250 µM |
| CC(C)c1c(Cc2ccccc2)nc(SCC(=O)c2cccs2)[nH]c1=O | IIIB | - | C8166 | 0.28 µM |
| O=S(=O)(Cc1ccccc1)c1ncccc1O | IIIB | - | CEM | 60 µg/mL |
| COC(=O)[C@H](C)NP(=O)(OC[C@@H]1C=C[C@H](n2cc(C)c(=O)[nH]c2=O)O1)Oc1ccccc1 | IIIB | - | CEM + CEM/0 | 0.18 µM |
| CC(C)c1c(Sc2ccccc2)n(COCc2ccccc2)c(=S)[nH]c1=O | IIIB | RT-Y181I | CEM | 5 µM |
| O=c1ccn([C@H]2C=C[C@@H](CO)O2)c(=O)[nH]1 | IIIB | - | CEM | >250 µM |
| CC1=C(C(=S)Nc2ccc(Cl)c(C=NOC(C)(C)C)c2)CCCO1 | - | RT-L100I | CEM | 0.148 µM |
| CCOc1cccnc1SCc1ccccc1 | IIIB | - | CEM | 33 µg/mL |
| Cc1sccc1C(=S)Nc1ccc(Cl)c(OCCC(C)C)c1 | - | RT-K103N | CEM | 0.262 µM |
| Cc1cccc(CS(=O)(=O)c2cccc[n+]2[O-])c1 | IIIB | RT-L100I | CEM | ≥20 µg/mL |
| CCOCn1c(Sc2cc(C)cc(C)c2)c(CC)c(=O)[nH]c1=O | IIIB | RT-E138K | CEM | 0.03 µM |
| Nc1nc(OC[C@H]2CC[C@@H](COCc3ccccc3)O2)cc(OC[C@@H]2CC[C@H](COCc3ccccc3)O2)n1 | IIIB | - | CEM | >10 µM |
| CCCC1=C(C(=O)Nc2ccc(Cl)c(C(=O)OCC)c2)SCCO1 | IIIB | - | CEM | 0.15 µg/mL |
| CC(C)OC(=O)c1cc(NC(=S)c2ccccc2N)ccc1Cl | - | RT-L100I | CEM | 13 µM |
| C=C(C)C1CC[C@@H]2CC[C@]3(C)C(CCC4[C@@]5(C)CC[C@H](O)C(C)(C)C5CC[C@]43C)C12 | Tat/Rev-defective | - | 1A2 | 6.21 µg/mL |
| Cc1ccc(C)c(CSc2c(Cl)ccc[n+]2[O-])c1 | IIIB | - | MT-2 | 0.1 µg/mL |
| CCc1c(Sc2cc(C)cc(C)c2)n(COCc2ccccc2)c(=S)[nH]c1=O | IIIB | RT-Y188H | CEM | 0.97 µM |
| CC(C)OC(=O)c1cc(NC(=S)OC(C)C)ccc1Cl | IIIB | RT-Y188H | CEM | 2.1 µM |
| O=C(Nc1ccc(Cl)c(C(=O)OC2CCCCC2)c1)c1ccccc1F | - | RT-Y181C | CEM | 13 µM |
| CC(C)c1c(Cc2ccccc2)nc(SCCc2ccccc2)[nH]c1=O | IIIB | - | C8166 | 1.04 µM |
| CC(C)=CCOc1cc(NC(=S)c2ccoc2C)ccc1Cl | - | RT-Y181C | CEM | 0.045 µM |
| CC1=C(C(=O)Nc2cc(C(=O)OC(C)C)c(Cl)cc2F)SCCO1 | PYR-resistant (RT Y181C) | RT-Y181C | CEM | >10 µg/mL |
| Cc1occc1C(=O)Nc1ccc(Cl)c(/C=N/N2CCCC2)c1 | HEPT-resistant (RT Y188L) | RT-Y188L | CEM | <2 µg/mL |
| CCOCn1c(Cc2ccccc2)c(CC)c(=O)[nH]c1=O | IIIB TIBO R82913-resistant (RT K103N) | RT-K103N | CEM | 0.29 µM |
| CC1=C(C(=O)Nc2ccc(Cl)c(C(=O)OC3CCCCC3C)c2)SCCO1 | IIIB | - | CEM | 0.1 µg/mL |
| CCCCCCCCCCCCCCCC(=O)NCC1CC(OP(=O)(O)OCC2CC(OP(=O)(O)OCC3CC(O)C(n4cnc5c(N)ncnc54)O3)C(n3cnc4c(N)ncnc43)O2)C(n2cnc3c(N)ncnc32)O1 | IIIB | - | SupT1 + Sup-T1 | <100 µM |
| C/C=C/COc1cc(NC(=S)c2ccoc2C)ccc1Cl | - | RT-Y181C | CEM | 0.58 µM |
| CC(C)(O)CCc1c(O[C@@H]2O[C@H](CO)[C@@H](O)[C@H](O)[C@H]2O)cc2oc(-c3ccc(O)c(O)c3)c(O)c(=O)c2c1O | MC99 deltaTAT/REV | - | 1A2 | 45.8 µg/mL |
| Cc1ccc(C)c(CS(=O)(=O)c2cccc[n+]2[O-])c1 | IIIB | RT-Y181C | CEM | 20 µg/mL |
| Cc1occc1C(=S)Nc1ccc(Cl)c(/C=N/OCc2ccccc2)c1 | IIIB | - | CEM | 0.78 µM |
| CCC1=C(C(=O)Nc2ccc(Cl)c(C(=O)OC(C)C)c2)SCCO1 | PYR-resistant (RT Y181C) | RT-Y181C | CEM | 5 µg/mL |
| Cc1ccccc1C(=S)Nc1ccc(Cl)c(C(=O)OC(C)C)c1 | IIIB | - | CEM | 0.513 µM |
| CCc1c(Sc2cc(C)cc(C)c2)n(COCCO)c(=S)[nH]c1=O | IIIB | RT-Y181I | CEM | 1 µM |
| Cc1cn([C@H]2C[C@H](N=[N+]=[N-])[C@@H](CO)O2)c(=O)[nH]c1=O | IIIB | - | C8166 | 0.017 µM |
| COc1cc(O)c2c(=O)cc(-c3ccc(Oc4cc(-c5cc(=O)c6c(O)cc(O)cc6o5)ccc4O)cc3)oc2c1 | MC99 deltaTAT/REV | - | 1A2 | 2 µg/mL |
| Cc1cccc2c1CP(=O)(OC[C@@H]1CC[C@H](n3ccc(=O)[nH]c3=O)O1)CC2 | IIIB | - | CEM | >50 µM |
| C#CCO/N=C/c1cc(NC(=S)c2ccoc2C)ccc1Cl | - | RT-V106A | CEM | 1 µM |
| COCC1=C(C(=O)Nc2ccc(Cl)c(C(=O)OC(C)C)c2)SCCO1 | IIIB | - | CEM | 0.7 µg/mL |
| Cc1occc1C(=S)Nc1ccc(Cl)c(C(=O)OC(C)C)c1 | - | RT-E138K | CEM | 1.7 µM |
| CCc1c(Cc2ccccc2)nc(SCC(=O)c2ccc(OC)cc2)[nH]c1=O | IIIB | - | C8166 | 0.048 µM |
| Cc1ccsc1C(=S)Nc1ccc(Cl)c(C(=O)OC2CCCCC2)c1 | - | RT-L100I | CEM | 1.6 µM |
| CC(C)C(=O)Oc1ccc(COP(=O)(OCc2ccc(OC(=O)C(C)C)cc2)OP(=O)([O-])OC[C@@H]2C=C[C@H](n3ccc(=O)[nH]c3=O)O2)cc1 | IIIB | - | CEM | 32 µM |

For reference, 10 entries again:

structure,strain or isolate,mutations,cell line,value
Cc1occc1C(=S)Nc1ccc(Cl)c(C(=O)OC(C)C)c1,-,RT-E138K,CEM,1.7 µM
Cc1cccc(CS(=O)(=O)c2cccc[n+]2[O-])c1,IIIB,RT-L100I,CEM,≥20 µg/mL
CCOCn1c(Sc2cc(C)cc(C)c2)c(CC)c(=O)[nH]c1=O,IIIB,RT-E138K,CEM,0.03 µM
CC(C)c1c(Sc2ccccc2)n(COCc2ccccc2)c(=S)[nH]c1=O,IIIB,RT-Y181I,CEM,5 µM
CC(C)c1c(Cc2ccccc2)nc(SCC(=O)c2cccs2)[nH]c1=O,IIIB,-,C8166,0.28 µM
Cc1cc(C)c(S(=O)(=O)OCC2OC3OC4C(CO)OC(OC5C(CO)OC(OC6C(CO)OC(OC7C(CO)OC(OC8C(CO)OC(OC9C(C[n+]%10ccccc%10)OC(OC2C(O)C3O)C(O)C9O)C(O)C8O)C(O)C7O)C(O)C6O)C(O)C5O)C(O)C4O)c(C)c1,LAV-1,-,MOLT-4,<42 µg/mL
CCCCCCCCCCCCCCCC(=O)NCC1OC(n2cnc3c(N)ncnc32)C(OP(=O)(O)OCC2OC(n3cnc4c(N)ncnc43)C(OP(=O)(O)OCCOCn3cnc4c(N)ncnc43)C2O)C1O,IIIB,-,SupT1 + Sup-T1,<100 µM
CC(C)c1c(Cc2ccccc2)nc(SCCc2ccccc2)[nH]c1=O,IIIB,-,C8166,1.04 µM
COc1ccc(OC)c(CS(=O)c2cccc[n+]2[O-])c1,IIIB,-,CEM,>100 µg/mL
CC(C)=CCOc1cc(NC(=S)c2ccoc2C)ccc1Cl,IIIB,RT-V179D,CEM,0.017 µM